Percent effect of library compounds

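Whole-cell growth test on Mycobacterium tuberculosis, read after 3 days in glucose-containing 7H9 medium; the read-out is not stated. Tested at 500 µM. Direction is inferred from retests: higher values go with more growth inhibition. Of about 18,000 compounds tested this way, about 1,400 (7.9%) reached 50% or more in at least one test.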

Each number is a percent effect as filed.
The record does not define 0% and 100%; most values in the screen are far below 50% and negative numbers occur (in some assays of this library far below -100).
This is part of a subset picked to be rich in strong results.

Compound: CC(C)CCC(=O)NCc1ccnc(N(C)C)c1
effect: 28.67%

Compound: CC(=O)c1c[nH]c(C(=O)NCc2cnn(C)c2C)c1
effect: -8.168%

Compound: Cc1nc(O)c(C(=O)N2CCn3cnnc3C2)cc1Br
effect: -9.216%

Compound: CC1(C)CN(C(=O)c2cscn2)CCS1(=O)=O
effect: 4.313%

Compound: CN1CCN(C(=O)Nc2c(F)cc(F)cc2Br)CC1=O
effect: -7.861%

Compound: Cc1cc(NC(=O)C2=NN(C)C(=O)CC2)n(C)n1
effect: -0.3519%

Compound: Cn1cc(Br)cc(NC(=O)c2sccc2C#N)c1=O
effect: -21.5%

Compound: NCC(=O)N1CCCC(CCc2ccc(F)c(F)c2)C1 (stereo not drawn)
effect: 91.74%

Compound: CC(=O)NCCc1nc(-c2ccc(C)nn2)no1
effect: -1.222%

Compound: CC(C)N(CCN)C1CC1
effect: 22.22%

Compound: COc1ccc(OCCSCC(=O)NCCC#N)cc1
effect: 68.26%

Compound: Fc1ccc(-c2noc(CN3CCSCC3)n2)cc1
effect: -15.38%

Compound: Cc1cc(C(=O)NCc2ccc(F)cc2)[nH]n1
effect: 61.23%

Compound: CN(CCCN)C(=O)Cc1ccccc1Br
effect: 3.439%

Compound: CN(C)S(=O)(=O)c1cc2c(cc1Cl)OCCO2
effect: 58.97%

Compound: CCn1nnnc1NCc1sccc1C
effect: 28.77%

Compound: NS(=O)(=O)c1ccc(NC(=O)COC(=O)C2CC2)cc1
effect: 19%

Compound: COc1ccnc(N2CCCNCC2)n1
effect: 71.2%

Compound: Cc1ccc(NC(=O)CN2CCCC2=O)nc1
effect: 9.348%

Compound: FC(F)(F)CC1CNCCO1 (stereo not drawn)
effect: 11.57%

Compound: COCCCNc1ccc(Br)cn1
effect: 44.47%

Compound: N#Cc1ccc(C(=O)NCC2CC2)cc1
effect: 58.71%

Compound: CC(C)C(=O)N1CCC(C(=O)c2ccc(O)cc2)CC1
effect: 66.13%

Compound: CCN1CC(=O)NC1c1cccc(C#N)c1 (stereo not drawn)
effect: 12.83%

Compound: CCn1c(C(N)=O)cc2ccccc21
effect: 28.37%

Compound: CC(C)Cc1cc(C(=O)NCC2(O)CCOCC2)[nH]n1
effect: 15.44%

Compound: CCN(CC(=O)NCc1ccccn1)CC1CCOC1 (stereo not drawn)
effect: -0.6344%

Compound: CCN(Cc1c(F)cccc1F)S(C)(=O)=O
effect: 8.828%

Compound: Cn1ncc(N2CCCO2)c(Cl)c1=O
effect: 2.498%

Compound: NC1COCc2ccccc21 (stereo not drawn)
effect: -7.812%

Compound: CN(C)C(=O)NCCNc1nc(-c2ccccc2)ns1
effect: -6.601%

Compound: COc1cccc(N2CCNCC2C)c1 (stereo not drawn)
effect: 79.3%

Compound: COc1ccc(OCCN2CCNCC2)cc1
effect: -18.3%

Compound: CCCc1nc(C)cc(NCCN(C)S(C)(=O)=O)n1
effect: 8.459%

Compound: CC(OCC(F)(F)F)C(=O)Nc1cnn(C)c1 (stereo not drawn)
effect: 5.528%

Compound: CC(C)C(=O)NC1CCOc2ccccc21 (stereo not drawn)
effect: 44.4%

Compound: NCc1cccc(N)n1
effect: 10.07%

Compound: COc1ccc(C(=O)Nc2ccn(C)n2)cn1
effect: 15.64%

Compound: Cc1cc(Cn2cc(S(=O)(=O)N(C)C)ccc2=O)no1
effect: 12.74%

Compound: CCCNC(=O)Nc1cn(CC)nc1C(N)=O
effect: -8.79%

Compound: CC(=O)NCCS(=O)(=O)N1CCc2ccccc21
effect: 22.43%

Compound: CN1CCCCC1CCC(=O)NCc1ccc(O)cc1 (stereo not drawn)
effect: 11.39%

Compound: N[C@@H]1CCO[C@H]1c1cncc(Br)c1
effect: 11.95%

Compound: Cn1ccnc1N1CCN(c2ccc(C#N)cn2)CC1
effect: 52.45%

Compound: CS(=O)(=O)CC1(CNCc2ccncc2)CC1
effect: 17.65%

Compound: Cc1cnc(C(=O)Nc2ccn(C)n2)cn1
effect: -1.96%

Compound: COC(=O)CCNC(=O)c1c(C)nn(C)c1C
effect: 1.64%

For reference, 3 entries once more:

Compound,effect
NCc1cccc(N)n1,10.07%
Cc1ccc(NC(=O)CN2CCCC2=O)nc1,9.348%
Cc1nc(O)c(C(=O)N2CCn3cnnc3C2)cc1Br,-9.216%

Measurements from “University of Dundee, Small-Polar-MMV Screening Library” (2021), ChEMBL document CHEMBL3988442.